Pooled drug test results. Numbers come from NIAID ChemDB, via PubChem.

Common to all: whole-cell or culture tests

An empty or dashed field is not shown. MIC50, MIC90 and the like: level of inhibition, or share of isolates inhibited. Inhibition is in % at the dose shown (toxicity tests: loss of growth or viability). ECn is the concentration giving n% inhibition of infection, replication or growth. Lines come from different laboratories, so protocols vary.

smiles	agent	cell line	read by	read-out	dose	strain or isolate	result
CCc1cn([C@@H]2O[C@H](CO)[C@@H](O)[C@@H]2O)c(=O)[nH]c1=O	Varicella zoster virus	HELF	plaque count	inhibition	1000 µg/mL	KANNO	54%
O=S(=O)(O)CO	Herpes simplex virus	Human amnion AV3 cells	cytopathic effect	inhibition	5 µg/mL		0%
C=Cc1cn([C@@H]2O[C@H](CO)[C@@H](O)[C@@H]2O)c(=O)[nH]c1=O	Varicella zoster virus	HELF	plaque count	inhibition	1 µg/mL	Asahikawa	69%
CCO/N=C/c1ccc(OCCC2CCN(c3ccc(Cl)nn3)CC2)cc1	Rhinovirus	KB	neutral red	EC50		Norman (ICAM-1 receptor group 5)	0.008 µM
Nc1nc2c(ncn2COCCO)c(=O)[nH]1	Varicella zoster virus	HELF	plaque count	inhibition	1 µg/mL	Ohtomo	100%
Oc1ccccc1N=Cc1ccc2c(c1)OCO2	Cryptococcus neoformans			MIC99		VM-MCMMPI	5.7 µg/mL
Nc1nc(=O)n([C@@H]2O[C@H](CO)[C@@H](O)[C@@H]2F)cc1I	Varicella zoster virus	HELF	plaque count	inhibition	0.01 µg/mL	Asahikawa	26%
C=CCc1ccc(OC)c(OC)c1	Candida albicans		turbidity	MIC90		ATCC 44829	345 µg/mL
CCOC(=O)/C=C/[C@H](C[C@@H]1CCNC1=O)NC(=O)[C@@H](CC(=O)[C@@H](NC(=O)c1cc(C)on1)C(C)C)Cc1ccc(F)cc1	Rhinovirus	OHIO HELA-I	cytopathic effect / visual reading	EC50		Isolate 9	0.01 µg/mL
Nc1ccc2cc(S(=O)(=O)O)cc(S(=O)(=O)O)c2c1	Herpes simplex virus	Human amnion AV3 cells	cytopathic effect	inhibition	10 µg/mL		0%
Oc1ccccc1N=Cc1ccccc1	Cryptococcus gattii			MIC99		135L/03	8 µg/mL
Nc1cc(S(=O)(=O)[O-])cc2cc(S(=O)(=O)[O-])ccc12	Rhinovirus	Human embryonic lung cells	cytopathic effect	inhibition	50 µg/mL		55%
CCC(CC)O[C@@H]1C=C(C(=O)O)C[C@H](N)[C@H]1NC(C)=O	Influenza A virus	MDCK		EC50		Influenza A/Washington/897/80 (H3N2)	<0.01 µM
O=S(=O)(O)c1ccc2cc(O)c(S(=O)(=O)O)cc2c1	Adenovirus	Human amnion AV3 cells	cytopathic effect	inhibition	50 µg/mL	TYPE 3	0%
O=c1[nH]c(=O)n([C@@H]2O[C@H](CO)[C@@H](O)[C@@H]2O)cc1/C=C/Br	Varicella zoster virus	HELF	plaque count	inhibition	0.001 µg/mL	YS	77%
Nc1ccc2c(O)cc(S(=O)(=O)[O-])cc2c1S(=O)(=O)[O-]	Herpes simplex virus	Human conjunctiva cells	cytopathic effect	inhibition	5 µg/mL		0%
CCOC(=O)c1cnc(NCCCCNc2ccnc3cc(Cl)ccc23)nc1C	Cryptococcus gattii			MIC99		L 27/01	32 µg/mL
Cc1ccc(C(=O)Nc2ccc(S(=O)(=O)O)c3cc(S(=O)(=O)O)cc(S(=O)(=O)O)c23)cc1NC(=O)c1cccc(NC(=O)Nc2cccc(C(=O)Nc3cc(C(=O)Nc4ccc(S(=O)(=O)O)c5cc(S(=O)(=O)O)cc(S(=O)(=O)O)c45)ccc3C)c2)c1	Herpes simplex virus	Human amnion AV3 cells	cytopathic effect	inhibition	5 µg/mL		0%
O=[N+]([O-])c1ccc(C=Nc2ccccc2O)cc1	Cryptococcus gattii			MIC99		L24/01	16 µg/mL

The first 2 rows once more:

| smiles | agent | cell line | read by | read-out | dose | strain or isolate | result |
|---|---|---|---|---|---|---|---|
| CCc1cn([C@@H]2O[C@H](CO)[C@@H](O)[C@@H]2O)c(=O)[nH]c1=O | Varicella zoster virus | HELF | plaque count | inhibition | 1000 µg/mL | KANNO | 54% |
| O=S(=O)(O)CO | Herpes simplex virus | Human amnion AV3 cells | cytopathic effect | inhibition | 5 µg/mL |  | 0% |